# Measured values taken from PMC7235863, “Benzamide Derivatives Targeting the Cell Division Protein FtsZ: Modifications of the Linker and the Benzodioxane Scaffold and Their Effects on Antimicrobial Activity” (Antibiotics, 2020).
# How the values were obtained:
# MSSA ATCC 29213 = assay: MIC/MBC determination in LB broth, MSSA; type: cell-based, Staphylococcus aureus; conditions: ratio between TD90 (MRC-5) and MBC
# Protocol: (§1) Normal human lung fibroblasts (MRC-5) were grown in Dulbecco’s modified Eagle’s medium (DMEM) supplemented with 10% calf serum, 100 U/mL penicillin and […] streptomycin in an incubator at 5% CO2 atmosphere and 37 °C. The Gram-positive Staphylococcus aureus (methicillin-sensitive, MSSA ATCC 29213, and methicillin-resistant, MRSA ATCC 43300) and the Gram-negative Escherichia coli (ESBL, extended-spectrum beta-lactamase-positive) bacterial cells were grown in Luria-Bertani broth (LB) at 37 °C under constant shaking at 300 rpm.
# (§2) The antibacterial activity was tested on both a methicillin-sensitive and a methicillin-resistant S. aureus strain, and an ESBL E. coli clinical isolate. All the compounds were dissolved at the final concentration of 20 mg/mL in dimethyl sulfoxide (DMSO) and serially diluted in LB. Fresh cell cultures were used at 10^5 cells/mL in a final volume of 2 mL. Each bacterial sample was grown with different compound concentrations that ranged from 100 to 0.1 μg/mL. […] To determine the MBC, the bacteria were then washed three times with LB, centrifuged at 900× g for 10 min at 4 °C, and the pellet resuspended in fresh LB. After overnight incubation at 37 °C, the absence of growth was confirmed by OD measurement. The presence of antibacterial activity, at any concentration tested, was established for values of absorbance < 0.1 OD600. All tests were performed in quadruplicate and for each series of experiments, both positive (no compounds) and negative (no bacteria) controls were included.
# MRSA ATCC 43300 = assay: MIC/MBC determination in LB broth, MRSA; type: cell-based, Staphylococcus aureus; conditions: ratio between TD90 (MRC-5) and MBC
# Protocol: as §1, §2
Compound,TI90 (MSSA ATCC 29213),TI90 (MRSA ATCC 43300)
"3-(1,4-benzodithiane-2-yl)-2,6-difluorobenzamide [Compound 5]",20,20
NC(=O)c1c(F)ccc(OCCC2COc3ccccc3O2)c1F (centres unmarked) [Compound 7],76,76
"3-(1,4-benzoxathiane-3-yl)-2,6-difluorobenzamide [Compound 3]",10,10
"3-(1,4-benzoxathiane-2-yl)-2,6-difluorobenzamide [Compound 1]",>800,>800
